Assay results taken from publication PMC4650826, “Extended Loop Region of Hcp1 is Critical for the Assembly and Function of Type VI Secretion System in Burkholderia pseudomallei” (2015).

Assays:
[1] = biological target: Hcp1^Q46AE47A, recombinant mutant Hcp1 of Burkholderia pseudomallei (B. pseudomallei); assay: AUC
[2] = biological target: Hcp1^Q46AE47A, recombinant mutant Hcp1 of Burkholderia pseudomallei (B. pseudomallei); assay: dynamic light scattering; 8 mg/mL; apparent molecular weight in solution

“Hcp1^Q46AE47A, recombinant mutant Hcp1 of Burkholderia pseudomallei (natural protein)” gave a stoichiometry N [1] of 6 and a stoichiometry N [2] of 6.
